Pooled drug test results. Numbers come from NIAID ChemDB, via PubChem.

Shared fields: growth or infection tests; agent: HIV-1; measure: inhibition

Inhibition is in % at the dose shown (toxicity tests: loss of growth or viability).

smiles	strain or isolate	cell line	read by	tested at	result
O=C(NCCc1ccccc1)Nc1ncccn1		MT-4	cytopathic effect / XTT	10 µg/mL	23%
C[C@@H]1CN(C(=O)c2ccccc2)CCN1C(=O)C(=O)c1c[nH]c2c(F)c(F)c(F)c(F)c12		HeLa + HELA CD4+/CCR5	luciferase	10 µM	>98%
O=C1[C@@H](Cc2ccc(O)cc2)NC(=S)N1c1ccccc1		MT-4	cytopathic effect / XTT	10 µg/mL	19–34%
CC1(C)[C@@H](O[C@H]2O[C@H](C(=O)O)[C@@H](O)[C@H](O)[C@H]2O[C@@H]2O[C@H](C(=O)O)[C@@H](O)[C@H](O)[C@H]2O)CC[C@]2(C)[C@H]3C(=O)C=C4[C@@H]5C[C@@](C)(C(=O)O)CC[C@]5(C)CC[C@@]4(C)[C@]3(C)CC[C@@H]12	IIIB	MT-4	cytopathic effect	300 µM	100%
C[C@H]1CN(C(=O)c2ccccc2)CCN1C(=O)C(=O)c1c[nH]c2c(F)c(F)c(F)c(F)c12		HeLa + HELA CD4+/CCR5	luciferase	10 µM	>98%
Cc1ccc(-c2ccc3c(c2)C=C(C(=O)Nc2ccc(C[N+](C)(C)C4CCOCC4)cc2)CCC3)cc1	Du301 CLADE C	PBMC	p24	1 µM	100%
O=C(NCCc1ccccc1)Nc1nc2ccc(F)cc2s1		MT-4	cytopathic effect / XTT	1 µg/mL	3–100%
O=C(C(=O)N1CCN(C(=O)c2cccc(O)c2)CC1)c1c[nH]c2cccc(F)c12		HeLa + HELA CD4+/CCR5	luciferase	10 µM	>98%
CC(C)[C@H](NC(=O)[C@H](CO)NC(=O)[C@@H](N)CS)C(=O)N[C@H](C(=O)N[C@@H](CS)C(=O)NCC(=O)O)[C@@H](C)O	BaL	PBMC(PHA STIM.) + PBMC	p24	0.132 µM	0%
CC(=O)N1C(=O)[C@@H](Cc2ccccc2)NC1=S		MT-4	cytopathic effect / XTT	0.1 µg/mL	6%
O=C(C(=O)N1CCN(C(=O)c2ccc(-c3ccccn3)cc2S)CC1)c1c[nH]c2cccc(Cl)c12		HeLa + HELA CD4+/CCR5	luciferase	10 µM	86%
C[C@H]1[C@H](O)[C@@H](C)/C=C/C=C/C=C/C=C/C=C/C=C/C=C/[C@H](O[C@@H]2O[C@H](C)[C@@H](O)[C@H](N)[C@@H]2O)C[C@@H]2O[C@](O)(C[C@@H](O)C[C@@H](O)CC[C@H](O)[C@@H](O)C[C@@H](O)CC(=O)O[C@H]1C)C[C@H](O)[C@H]2C(=O)O	MDR1385 Primary isolate X4 (SI)	PBMC	p24 / RT activity	2.3 µM	90%
CC(C)[C@H](NC(=O)[C@H](CO)NC(=O)[C@@H](N)CSSCC(=O)O)C(=O)N[C@H](C(=O)N[C@@H](CSSCC(=O)O)C(=O)NCC(=O)O)[C@@H](C)O	BaL	PBMC(PHA STIM.) + PBMC	p24	0.66 µM	35%
O=C(NCCc1ccccc1)Nc1cncc(Cl)n1		MT-4	cytopathic effect / XTT	1 µg/mL	37–94%
O=C(C(=O)N1CCN(C(=O)c2ccoc2)CC1)c1c[nH]c2cccc(F)c12		HeLa + HELA CD4+/CCR5	luciferase	10 µM	>98%

Repeating the final 2 entries:

O=C(NCCc1ccccc1)Nc1cncc(Cl)n1 ; cell line: MT-4 ; read by: cytopathic effect / XTT ; tested at: 1 µg/mL ; result: 37–94%
O=C(C(=O)N1CCN(C(=O)c2ccoc2)CC1)c1c[nH]c2cccc(F)c12 ; cell line: HeLa + HELA CD4+/CCR5 ; read by: luciferase ; tested at: 10 µM ; result: >98%

Blank or dashed fields: not listed here. Lines come from different laboratories, so protocols vary. Two numbers with a dash give a range or band.